Compound potency records, mixed from different reports. Data source: NIAID ChemDB in PubChem.

All rows: growth or infection tests; organism: Toxoplasma gondii; endpoint: EC50

An empty or dashed field is not shown. ECn is the concentration giving n% inhibition of infection, replication or growth. Lines come from different laboratories, so protocols vary.

SMILES,strain or isolate,method,value
COc1cc(Cc2cnc(N)nc2N)cc(OC)c1OC,,,0.008 µM
Nc1ccc(S(=O)(=O)Nc2cc(Br)cc(Br)c2)cc1,,,8.9 µM
COC(=O)Nc1nc2ccc(C(=O)c3cccs3)cc2[nH]1,RH,,<10 µM
CCCCCCCN(CC1=C(O)c2ccccc2C(=O)C1=O)Cc1ccccc1,PLK,,2.1 µM
CO[C@@H]1[C@@H](O[C@@H]2O[C@H](C)[C@@H](O[C@H]3C[C@@](C)(O)[C@@H](O)[C@H](C)O3)[C@H](N(C)C)[C@H]2O)[C@@H](CC=O)C[C@@H](C)[C@@H](O[C@H]2CC[C@H](N(C)C)[C@H](C)O2)/C=C/C=C/C[C@@H](C)OC(=O)C[C@H]1O,,,<2 µg/mL
CCCN(CCC)c1c([N+](=O)[O-])cc(S(N)(=O)=O)cc1[N+](=O)[O-],RH,,<1 µM
CC(C)=CCCc1ccc2c(c1)C(=O)C(N1CCCC1)=CC2=O,RH (type I),ELISA,69.35 µM
CC[C@H](C)[C@H]1O[C@]2(CC[C@@H]1C)C[C@@H]1C[C@@H](C/C=C(\C)C(O[C@H]3C[C@H](OC)[C@@H](O[C@H]4C[C@H](OC)[C@@H](O)[C@H](C)O4)[C@H](C)O3)[C@@H](C)/C=C/C=C3\CO[C@@H]4[C@H](O)C(C)=C[C@@H](C(=O)O1)[C@]34O)O2,RH,ELISA,0.27 µg/mL
CC(C)CCCc1ccc2c(c1)C(=O)C=C(N1CCCC1)C2=O,RH (type I),ELISA,0.32 µM
O=c1cc(C(F)(F)F)[nH]c(=S)[nH]1,,MTS,32.2 µM
Nc1ccc(S(=O)(=O)Nc2ncccn2)cc1,,,298 µM
CCCN(CCC)c1c([N+](=O)[O-])cc(C(F)(F)F)cc1[N+](=O)[O-],Oryzalin-resistant,,>5 µM
Cc1[nH]c2ccccc2c(=O)c1-c1ccc(Oc2ccc(OC(F)(F)F)cc2)cc1,2F,absorbance,0.0001 µM
Nc1ccc(S(=O)(=O)Nc2ncccn2)cc1,RH (type I),ELISA,39.63 µM
Nc1ccc(S(=O)(=O)Nc2cc(F)cc(F)c2)cc1,,,42.7 µM

The first 2 rows once more:

SMILES	strain or isolate	method	value
COc1cc(Cc2cnc(N)nc2N)cc(OC)c1OC			0.008 µM
Nc1ccc(S(=O)(=O)Nc2cc(Br)cc(Br)c2)cc1			8.9 µM